Experimental data taken from US20120065103A1, “Prolyl Endopeptidase Probes” (priority 2010, published 2012).

System: Aspergillus fumigatus infected and uninfected guinea pig broncheoaveolar lavage fluid
Assay: Screening probes against Aspergillus fumigatus infected and uninfected guinea pig BALF (Table 2)
Type: biochemical
Details: for Specificity: negative = fold change less than 3; for Sensitivity: positive = fold change 3 or greater
Source text: Methods: Guinea pig inhalation model comprises neutropenia by cortisone acetate and cyclophosphamide (days −2 and +3), 1.2×10^8 conidia/mL nebulized AF in inhalation chamber, and serum and BALF obtained at predetermined time points; Vallor et al. Antimicrob. Ag. Chemother. 2008, 52.
Table 2 Legend. Variable region (Xaa—Yaa—Zaa) of the top 6 peptide probes are all listed in single amino acid code; AF293 and CEA10 are the two strains of Aspergillus fumigatus infected guinea pig BALF samples screened in this study.
N stands for number of guinea pig BALF samples screened against the given peptide probe. Guinea pig infected and uninfected samples with very low background (t=0 hour) and end point values (t=6 hour) (i.e., no greater than 100 units difference between t=0 hour and t=6 hour) were not selected for the statistical calculations.
Mean fold change values is the average of fluorescence fold change calculated for each guinea pig sample screened against respective peptide probe. Fluorescence fold change values are calculated according to the formula:
Fold Change=Fluorescence measured at time t=6 hour/Fluorescence measured at time t=0 hour.
* Fold change values for these peptide probes were calculated at time t=3 hour as the end point value.
SD corresponds to standard deviation calculated for the given probe screened against the respective BALF sample.
Percentage fluorescence efficiency (% FE) is calculated for each probe as follows, % FE=100 * [(Fold changeInfected BALF-Fold changeUninfected BALF)/Fold changeuninfected BALF] Fold change values are all the mean fold change values.
P values are calculated with two tailed student t-test with two sample unequal variance for each peptide probe screened against respective infected and uninfected BALF samples. […]

[1] = strain AF293, end point t=3 hour
[2] = strain CEA10, end point t=3 hour

Substance | Specificity (strain AF293, t=6 hour) | Sensitivity (strain AF293, t=6 hour) | Specificity (strain CEA10, t=6 hour) | Sensitivity (strain CEA10, t=6 hour) | Specificity [1] | Sensitivity [1] | Specificity [2] | Sensitivity [2]
MeOCGly-GGPFPGG Dap(DNP)KK-NH2 | 0.91 | 0.60 | 0.75 | 0.80 |  |  |  | 
MeOCGly-GGPHPGG Dap(DNP)KK-NH2 | 0.91 | 0.41 | 0.55 | 0.80 |  |  |  | 
MeOCGly-GGPNPGG Dap(DNP)KK-NH2 |  |  |  |  | 0.97 | 0.69 | 0.42 | 0.95
MeOCGly-GGPNPNPGG Dap(DNP)KK-NH2 | 0.68 | 0.75 | 0.40 | 0.83 |  |  |  | 
MeOCGly-GGPSPGG Dap(DNP)KK-NH2 | 0.64 | 0.75 | 0.30 | 0.91 |  |  |  | 
